Test results reported in patent publication US20220273678A1 (priority 2020, published 2022).

Test system: Calu3 cells
Assay: XTT cell cytotoxicity assay in uninfected Calu3 cells
Format: cell-based, human
Conditions: 0.25 μM brusatol, 24 h
Experimental: To measure cell viability to determine if there was any treatment-induced cytotoxicity, cells were plated and treated with drugs as described above. Cells were exposed to the same dilution series created for the in vitro efficacy studies. As above, vehicle-treated cells served as the 0% cytotoxicity control. After 24 h, cell viability was measured on a Synergy 2 Biotek microplate reader (Biotek Inc) via the XTT Cell Proliferation Assay Kit (ATCC® 30-1011K™) according to the manufacturer's protocol. Similar data were obtained in three independent experiments.

## brusatol
  cytotoxicity, XTT cell cytotoxicity assay: non-cytotoxic; also recorded: cytotoxic

“Also recorded” adds a separate entry of the source.
